Measured values from several laboratories, pooled; numbers as filed in NIAID ChemDB.

All rows: growth or infection tests; organism: Mycobacterium tuberculosis

Blank or dashed fields: not listed here.

smiles,strain or isolate,changes,cells,method,endpoint,tested at,value
O=C(O)CN1CCCN(CC(=O)O)Cc2cccc(n2)CN(CC(=O)O)CCC1,H37Rv,,,radiometric,inhibition,7.5 µg/mL,99%
Cc1ccc2[nH]c3c(C)c4cc[n+](C)cc4c(C)c3c2c1,,,,resazurin / fluorescence,MIC,,1 µg/mL
O=[N+]([O-])c1ccc(-c2nc(Cl)c3c(n2)CCCC3)o1,H37Rv,,,BACTEC,MIC bound,,≤12.5 µg/mL
Cn1nnc(-c2ccc(-c3ccc(N4C[C@H](CO)OC4=O)cc3F)cn2)n1,25 isolates (isoniazid rifampin-resistant),,,,MIC50,,0.25 µg/mL
Clc1ccccc1-c1c(C(c2ccccc2)n2ccnc2)cnn1-c1ccccc1,ATCC 35822 (isoniazid-resistant),,,,MIC50,,44.1 µM
CC(C)=CCC/C(C)=C/CNC(=O)CNC(=O)[C@]12C3CC4C5C3C[C@@]1(C(=O)NCC(=O)NC/C=C(\C)CCC=C(C)C)C5C42,H37Rv,,,BACTEC,MIC,,>50 µM
COC(=O)C1C(O)C(C)C(O)C(C)(O)/C=C\C=C(/C)C(=O)Nc2c(C)c(OC(C)=O)c3c(c2O)C(=O)C(C)=C2OCOC(=C23)/C(C)=C/C(C)(O)C(O)C(C)C1O,H37Rv,,,BACTEC,MIC bound,,≤12.8 µg/mL
CCCCCCSc1ncnc2ccccc12,CNCTC TBC1/47,,,,MIC,,125 µM
COc1cc(-c2c(C)oc(C)c2C(C)=O)ccc1OCc1ccccc1,H37Rv,,,BACTEC,inhibition,12.5 µg/mL,70%
CC(C)[C@H]1CO[C@]23CC[C@H](NCc4cc(C(F)(F)F)nc5c(C(F)(F)F)cccc45)C[C@H]2CCC(=O)N13,,,,resazurin,MIC,,<0.5 µM
CC(=N\N=C(N)N)/C(N=Nc1ccc(S(N)(=O)=O)cc1)=N/N=C(N)N,H37Rv,,,BACTEC,inhibition,12.5 µg/mL,12%
CC(=O)Oc1c(Cl)cccc1C(=O)Nc1ccc(C(F)(F)F)cc1,My 331/88,,,,MIC,,4 µg/mL
CN1C(=O)C(N=Nc2ccc([N+](=O)[O-])cc2)SC1=S,H37Rv,,,BACTEC,MIC,,≥12.8 µg/mL
Clc1ccc(-c2c(C(c3ccccc3)n3ccnc3)cnn2-c2ccc(Cl)cc2)cc1,ATCC 35828 (pyrazinamide-resistant),,,,MIC50,,≥100 µM
NNC(=O)c1ccncc1,BND320,Drug-resistant,,resazurin / fluorescence,MIC,,>100 µg/mL
CC1CCC2C(C1)c1c(c3ccccc3c3nc4ccccc4nc13)OC2(C)C,H37Rv,,,resazurin,MIC,,3.12 µg/mL
O=C1NCCNC1=O,H37Rv,,,BACTEC,inhibition,12.5 µg/mL,1%
Fc1ccccc1-n1ncc(C(c2ccccc2)n2ccnc2)c1-c1ccccc1,ATCC 35822 (isoniazid-resistant),,,,MIC90,,≥100 µM
Cc1c(CN2CCN(C)CC2)cc(-c2ccc(Cl)cc2)n1-c1ccc(Cl)cc1,19 strains,,,,MIC,,0.7–6.2 µg/mL
CCCSc1ncnc2ccccc12,CNCTC TBC1/47,,,,MIC,,250 µM
Fc1ccccc1-c1c(C(c2ccccc2)n2ccnc2)cnn1-c1ccccc1F,ATCC 35837 (ethambutol-resistant),,,,MIC90,,≥100 µM
Oc1ccc(Cl)cc1C(=S)Nc1ccc(F)cc1,My 331/88,,,,MIC,,2 µM
CC(C)[C@H]1CO[C@]23CC[C@H](N(Cc4ccc(C(F)(F)F)cc4)CC4CCCN4C(=O)OC(C)(C)C)C[C@H]2CCC(=O)N13,,,,resazurin,MIC,,<0.5 µM
Cc1nc2scc(-c3ccco3)c2c(=O)n1/N=C/c1ccc([N+](=O)[O-])cc1,CNCTC MY331/88,,,,MIC,,6 µM
CC(=O)N1N=C(C2=C(C)NC(=O)NC2c2ccccc2F)OC1c1ccccc1,H37Rv,,,agar / visual reading,inhibition,250 µg/mL,36%
OCC(O)C(O)C(O)C1SC(c2ccccc2)=NN1c1ccccc1,H37Rv,,,resazurin,inhibition,6.25 µg/mL,14%
COCOC(OCOC)c1ccc([N+](=O)ONNC(=O)c2cc(/C=C\c3ccco3)on2)o1,H37Rv,,,resazurin,inhibition,6.25 µg/mL,59%
CNc1c([N+](=O)[O-])cc2[nH]c(C)nc2c1[N+](=O)[O-],H37Rv,,,resazurin,MIC bound,,>6.25 µg/mL
NC(=S)N=Nc1c(S)n(-c2ccccc2)c2ccccc12,CNCTC TBC1/47,,,,MIC,,16 µM
c1ccc(Nc2cc(Nc3ccccc3)ncn2)cc1,mc4914 InhA overexpressing,,,resazurin,MIC90,,>500 µM
CCOC(=O)N1CCN(c2ccc(CNC(=O)c3ccc([N+](=O)[O-])o3)cc2F)CC1,H37Ra,,,,MIC,,0.004 µg/mL
Clc1ccc(-n2ncc(C(c3ccccc3)n3ccnc3)c2-c2ccccc2)cc1,ATCC 27294,,,,MIC90,,84 µM
Cc1ccc2[nH]c3c(C)c4ccncc4c(C)c3c2c1,MYC 431,XDR,,resazurin / fluorescence,MIC,,>100 µM
ICC1Cc2c(c3ccccc3c3nc4ccccc4nc23)O1,ATCC 35338,,,resazurin,MIC,,>100 µg/mL
CCCCCN1C(=S)C(=O)c2ccccc21,CNCTC TBC1/47,,,,MIC,,16 µM
Cc1c2ccncc2c(C)c2c1[nH]c1ccc(Br)cc12,Jal 2287,MDR,,resazurin / fluorescence,MIC,,>100 µM
Cc1nc2scc(-c3ccco3)c2c(=O)n1NC(=O)c1ccc(F)cc1,CNCTC MY331/88,,,,MIC,,9 µM
CCN(CC)CCOc1ccc(N=Nc2ccc(N)nc2N)cc1,H37Rv,,,BACTEC,MIC bound,,>12.5 µg/mL
Clc1ccc(-n2ncc(C(c3ccccc3)n3ccnc3)c2-c2ccccc2Cl)c(Cl)c1,ATCC 35828 (pyrazinamide-resistant),,,,MIC50,,15.6 µM
CC(C)[C@H]1CO[C@]23CC[C@H](N(Cc4ccc(C(F)(F)F)cc4)C[C@H]4CCCN4)C[C@H]2CCC(=O)N13,,,,resazurin,MIC,,0.5–5 µM
c1ccc(CCSc2ncnc3ccccc23)cc1,CNCTC TBC1/47,,,,MIC,,63 µM
CC(C)=CCC/C(C)=C/CNC(=O)CNC(=O)CC1(O)C2C3CC4C5C3C1C5C(O)(CC(=O)NCC(=O)NC/C=C(\C)CCC=C(C)C)C42,H37Rv,,,BACTEC,MIC,,>50 µM
CC(=O)Oc1cc(Cl)ccc1C(=O)Nc1cccc(Cl)c1,My 331/88,,,,MIC,,8 µg/mL
Cc1ccc(C(=O)Nn2c(C)nc3scc(-c4ccco4)c3c2=O)cc1,CNCTC MY331/88,,,,MIC,,96 µM
O=C1C[C@@H](c2ccccc2)NCCCCN(O)CCCN1,H37Rv,,,BACTEC,inhibition,12.5 µg/mL,-7%
CC(C)[C@H]1CO[C@]23CC[C@H](N(CCCC(F)(F)F)Cc4ccc(C(F)(F)F)cc4)C[C@H]2CCC(=O)N13,,,,resazurin,MIC,,<0.5 µM
CCN(CC)Cc1cc(Nc2c(C3CCCC3)c(C)nc3cc(Cl)ccc23)ccc1O,H37Rv,,,resazurin,MIC bound,,>6.25 µg/mL
O=C1C(=S)N(Cc2ccccc2)c2ccccc21,CNCTC TBC1/47,,,,MIC,,63 µM
CCC(C)c1ccc(NC(=S)c2cc(Cl)ccc2O)cc1,My 331/88,,,,MIC,,2 µM
CCCCSc1nnnn1-c1cccc(C)c1,H37Rv,,,,MIC,,61 µM
CCc1ccc(NC(=S)c2cc(Cl)ccc2O)cc1,My 331/88,,,,MIC,,1 µM
Cc1nc2scc(-c3ccco3)c2c(=O)n1NC(=O)C1CCCCC1,CNCTC MY331/88,,,,MIC,,105 µM
Cc1nn(C(=O)c2ccncc2)c(C)c1N=Nc1ccc(Br)cc1,H37Rv,,,BACTEC,inhibition,12.5 µg/mL,-6%
O=C(N=Nn1c(O)c(O)c2ccccc21)c1cc(/C=C\c2ccco2)on1,H37Rv,,,resazurin,inhibition,6.25 µg/mL,39%
CC(=O)Oc1c(Cl)cccc1C(=O)Nc1ccc(Cl)c(Cl)c1,My 331/88,,,,MIC,,2 µg/mL
Fc1ccccc1-c1c(C(c2ccccc2)n2ccnc2)cnn1-c1ccccc1,ATCC 27294,,,,MIC50,,≥100 µM
CC1(C)C=Cc2c(ccc3c(=O)c(-c4ccc5c(c4)OCO5)coc23)O1,H37Rv,,,BACTEC,MIC bound,,>12.5 µg/mL
Nc1ccc(S(=O)(=O)c2ccc(N)cc2)cc1,,,,,inhibition,16 µg/mL,0%
Cc1nc2scc(-c3ccco3)c2c(=O)n1NC(=O)c1cccs1,CNCTC MY331/88,,,,MIC,,106 µM
CC(=O)Oc1c(Cl)cccc1C(=O)Nc1cccc(Cl)c1,My 331/88,,,,MIC,,4 µg/mL
O=C(N1CCCCC(Cl)(Cl)C1=O)C(Cl)(Cl)Cl,H37Rv,,,BACTEC,MIC bound,,>12.5 µg/mL
NNC(=O)C1=CCN(CC(=O)c2ccc([N+](=O)[O-])cc2)C=C1,H37Rv,,,resazurin,inhibition,6.25 µg/mL,99%
Cc1nc2scc(-c3ccco3)c2c(=O)n1/N=C/c1ccc(F)cc1F,CNCTC MY331/88,,,,MIC,,4 µM
CCCSc1nnnn1-c1ccc(C)c(C)c1,H37Rv,,,,MIC,,125 µM
CC(=O)Oc1cc(Cl)ccc1C(=O)Nc1ccc(Cl)c(Cl)c1,My 331/88,,,,MIC,,1 µg/mL
CCCCCCCCCCCC[n+]1ccccc1.CCCCCCCCCCCC[n+]1ccccc1.S=C([S-])NCCNC(=S)[S-],H37Rv,,,BACTEC,inhibition,12.5 µg/mL,67%
CC(=O)N1N=C(C2=C(C)NC(=O)NC2c2ccccc2F)OC1c1ccc(O)cc1,H37Rv,,,agar / visual reading,inhibition,250 µg/mL,71%
CC(C)(C)OC(=O)C#CC[C@H]1CCC[C@@H]1/C=C/C(O)=C1/C(=O)NC(CCCNC(=O)OC(C)(C)C)C1=O,H37Rv,,,resazurin,MIC bound,,>6.25 µg/mL
CC(C)CSc1ncnc2ccccc12,CNCTC TBC1/47,,,,MIC,,125 µM
CCn1c(S)c(N=NC(N)=O)c2ccccc21,CNCTC TBC1/47,,,,MIC,,125 µM
Fc1ccc(-c2c(C(c3ccccc3)n3ccnc3)cnn2-c2ccccc2)cc1,ATCC 27294,,,,MIC90,,≥100 µM
C=C(NC(=O)c1cnccn1)C(=O)OC,H37Rv (ATCC 27294),,,resazurin,MIC,,100 µg/mL
O=C(N/N=C/C(F)(F)F)c1ccncc1,H37Rv,,VERO,,MIC,,0.109 µg/mL
CCCCCCCCCCCCCCCCSc1ncnc2ccccc12,CNCTC TBC1/47,,,,MIC,,500 µM
O=C(O)c1cn(C2CC2)c2c(Cl)c(N3C[C@@H]4CCCN[C@@H]4C3)c(F)cc2c1=O,82 strains,,,,MIC90,,0.06 µg/mL
COc1ccc(NC(=S)c2cc(Cl)ccc2O)cc1,My 331/88,,,,MIC,,1 µM
CC(C)[C@H]1CO[C@]23CC[C@H](N(Cc4ccc(C(F)(F)F)cc4)C4CN(C=O)C4)C[C@H]2CCC(=O)N13,,,,resazurin,MIC,,0.5–5 µM
Cc1ccc(-n2nnnc2SC(C)C)cc1,H37Rv,,,,MIC,,250 µM
O=C(ON=C1c2ccccc2C(Br)C(Br)c2ccccc21)c1ccccc1,H37Rv,,,BACTEC,MIC bound,,>12.5 µg/mL
CC1(C)CCC2=C(O1)c1ccccc1C(=O)C2=O,H37Rv,,,resazurin,MIC,,1.56 µg/mL
CN(C)c1ccc(/C=N/NC(=O)c2cnc3ccccc3c2)cc1,H37Rv,,,BACTEC,inhibition,12.5 µg/mL,8%
CO[C@H]1/C=C/O[C@@]2(C)Oc3c(C)c(O)c4c(O)c(cc(O)c4c3C2=O)NC(=O)/C(C)=C\C=C\[C@H](C)[C@H](O)[C@@H](C)[C@@H](O)[C@@H](C)[C@H](OC(C)=O)[C@@H]1C,Aoyama B (streptomycin-resistant),,,,MIC,,12.5 µg/mL
O=S1(=O)NC2CCC3NS(=O)(=O)NC4CCC(N1)N4S(=O)(=O)N23,H37Rv,,,BACTEC,MIC bound,,>12.5 µg/mL
C=C[C@@]1(C)C=C2CC[C@@H]3[C@@](C)([C@H](O)CC(=O)[C@@]3(C)CC)[C@H]2C[C@H]1O,,,,,MIC,,4 µg/mL

The first 8 rows once more:

| smiles | strain or isolate | changes | cells | method | endpoint | tested at | value |
|---|---|---|---|---|---|---|---|
| O=C(O)CN1CCCN(CC(=O)O)Cc2cccc(n2)CN(CC(=O)O)CCC1 | H37Rv |  |  | radiometric | inhibition | 7.5 µg/mL | 99% |
| Cc1ccc2[nH]c3c(C)c4cc[n+](C)cc4c(C)c3c2c1 |  |  |  | resazurin / fluorescence | MIC |  | 1 µg/mL |
| O=[N+]([O-])c1ccc(-c2nc(Cl)c3c(n2)CCCC3)o1 | H37Rv |  |  | BACTEC | MIC bound |  | ≤12.5 µg/mL |
| Cn1nnc(-c2ccc(-c3ccc(N4C[C@H](CO)OC4=O)cc3F)cn2)n1 | 25 isolates (isoniazid rifampin-resistant) |  |  |  | MIC50 |  | 0.25 µg/mL |
| Clc1ccccc1-c1c(C(c2ccccc2)n2ccnc2)cnn1-c1ccccc1 | ATCC 35822 (isoniazid-resistant) |  |  |  | MIC50 |  | 44.1 µM |
| CC(C)=CCC/C(C)=C/CNC(=O)CNC(=O)[C@]12C3CC4C5C3C[C@@]1(C(=O)NCC(=O)NC/C=C(\C)CCC=C(C)C)C5C42 | H37Rv |  |  | BACTEC | MIC |  | >50 µM |
| COC(=O)C1C(O)C(C)C(O)C(C)(O)/C=C\C=C(/C)C(=O)Nc2c(C)c(OC(C)=O)c3c(c2O)C(=O)C(C)=C2OCOC(=C23)/C(C)=C/C(C)(O)C(O)C(C)C1O | H37Rv |  |  | BACTEC | MIC bound |  | ≤12.8 µg/mL |
| CCCCCCSc1ncnc2ccccc12 | CNCTC TBC1/47 |  |  |  | MIC |  | 125 µM |

Rows are shuffled and stem from different studies. MIC50, MIC90 and the like: level of inhibition, or share of isolates inhibited. Two numbers with a dash give a range or band. Inhibition is in % at the dose shown (toxicity tests: loss of growth or viability). MIC bound comes from a single tested concentration.